Anti-infective test results gathered from many reports (values: NIAID ChemDB through PubChem).

Common to all: enzyme or target tests; species: HIV-1; target: gp120

Blank or dashed fields: not listed here.

smiles,read by,strain,conditions,endpoint,result
CSCC[C@H](NC(=O)[C@H](CCSC)NC(=O)[C@H](C)NC(=O)[C@H](CCC(=O)O)NC(=O)[C@H](CO)NC(=O)[C@H](Cc1c[nH]c2ccccc12)NC(=O)[C@@H]1CCCN1)C(=O)O,ELISA,SF2,,IC50,>500 µM
CN1C(=O)C(c2cc(Cl)c(O)c(Cl)c2)NC(=O)[C@@H]2NC(=O)C(c3cc(Cl)c(O)c(Cl)c3)NC(=O)[C@H](NC(=O)C(=O)c3cc(Cl)c(O)c(Cl)c3)Cc3c[nH]c4c(cccc34)-c3cc2cc(c3O)Oc2ccc(cc2)CC1C(=O)NC(C(=O)O)c1ccc(O)cc1,ELISA,MN,,IC50,0.31 µM
CC(C)[C@H](NC(=O)[C@@H](N)Cc1ccccc1)C(=O)N[C@@H](CCCN=C(N)N)C(N)=O,ELISA,,,IC50,270 µM
COC(=O)C(=O)N1CCC[C@@H]1C(=O)N[C@H](Cc1ccccc1)C(=O)OCc1ccccc1,ELISA,,1% FBS,IC50,>500 µM
CCC1=C(C)/C(=C/c2[nH]c(Cc3[nH]c(/C=C4\NC(=O)C(C)=C4CC)c(C)c3CCC(=O)O)c(CCC(=O)O)c2C)NC1=O,,,,IC50,>60 µg/mL
O=C(O)C1=C[C@@H](OC(=O)c2cc(O)c(O)c(O)c2)[C@@H](O)[C@H](OC(=O)c2cc(O)c(O)c(O)c2)C1,fluorescence,,,IC50,76 µM
O=C(O)C1(NS(=O)(=O)c2cnc(N3CCC(CCCC4CCN(S(=O)(=O)c5cc(Br)c(Cl)s5)CC4)CC3)c(Br)c2)CCCCC1,fluorescence,,,IC50,1 µM
NC(=O)[C@H](CCCN=C(N)N)NC(=O)[C@H](CC(=O)O)NC(=O)[C@@H](N)Cc1ccccc1,ELISA,,,IC50,170 µM
O=C(O[C@@H]1Cc2c(O)cc(O)cc2O[C@@H]1c1cc(O)c(O)c(O)c1)c1cc(O)c(O)c(O)c1,ELISA,,,IC50,>20 µM
O=C1O[C@@H]2[C@@H](OC(=O)c3cc(O)c(O)c(O)c3-c3c1cc(O)c(O)c3O)[C@@H](O)O[C@@H]1COC(=O)c3cc(O)c(O)c(O)c3-c3c(O)c(O)c4oc(=O)c5c(c(O)c(O)c6oc(=O)c3c4c65)-c3c(cc(O)c(O)c3O)C(=O)O[C@@H]21,fluorescence,,,IC50,0.14 µM
NC(=O)[C@H](CCCN=C(N)N)NC(=O)[C@H](Cc1ccccc1)NC(=O)[C@H](Cc1ccccc1)NC(=O)[C@@H](N)Cc1ccccc1,ELISA,,,IC50,720 µM
CSCC[C@H](NS(=O)(=O)c1ccc(N2CCC(CCCC3CCN(S(=O)(=O)c4ccc(C(C)(C)C)cc4)CC3)CC2)c(Cl)c1)C(=O)O,fluorescence,,,IC50,1–10 µM
NC(=O)[C@H](CCCN=C(N)N)NC(=O)[C@H](CO)NC(=O)[C@@H](N)Cc1ccccc1,ELISA,,,IC50,820 µM
O=C(C(=O)N1CCN(C(=O)c2ccccc2)CC1)c1c[nH]c2ccccc12,ELISA,JR-FL,,IC50,1.8 µM
CC1=C(CCC(=O)O)c2cc3nc(cc4[nH]c(cc5[nH]c(cc1n2)c(CCC(=O)O)c5C)c(CCC(=O)O)c4C)C(CCC(=O)O)=C3C,,,,IC50,>60 µg/mL
C[C@@H]1CN(C(=O)c2ccccc2)CCN1C(=O)C(=O)c1c[nH]c2ccccc12,ELISA,YU2,,IC50,<0.1 µM
NC(=O)[C@H](CCCN=C(N)N)NC(=O)[C@H](Cc1ccccc1)NC(=O)[C@H](CO)NC(=O)[C@@H](N)Cc1ccccc1,ELISA,,,IC50,2990 µM
O=C(O)[C@H](Cc1ccc(Cl)cc1)NS(=O)(=O)c1cnc(N2CCC(CCCCCC3CCN(S(=O)(=O)c4cc(Br)c(Cl)s4)CC3)CC2)c(Br)c1,fluorescence,,,IC50,1–10 µM
CCCCCCCCC[C@H]1CC2CCC3C(C(=O)OCCCCCCCCCC4N=C(N)N5CCCC5=C4C(=O)OCCCCN=C(N)N)[C@@H](C)N=C(N1)N23,,,,IC50,10 µM
O=C(O)CC1Cc2ccccc2CN1S(=O)(=O)c1cnc(N2CCC(CCCCC3CCN(S(=O)(=O)c4cc(Br)c(Cl)s4)CC3)CC2)c(Br)c1,fluorescence,,,IC50,1 µM
NC(=O)[C@H](CCCN=C(N)N)NC(=O)[C@H](CO)NC(=O)[C@H](Cc1ccccc1)NC(=O)[C@@H](N)Cc1ccccc1,ELISA,,,IC50,2750 µM
O=C(O)CCC1=C(CC(=O)O)c2cc3nc(cc4[nH]c(cc5[nH]c(cc1n2)c(CC(=O)O)c5CCC(=O)O)c(CCC(=O)O)c4CC(=O)O)C(CC(=O)O)=C3CCC(=O)O,,,,IC50,>60 µg/mL
CN[C@@H]1[C@H](O[C@@H]2OC[C@@H](O)[C@H](O)[C@H]2O)[C@@H](O)[C@H](O[C@H]2c3cc(C)c(C(=O)N[C@H](C)C(=O)O)c(O)c3-c3c(cc4c(c3O)C(=O)c3cc(OC)cc(O)c3C4=O)[C@@H]2O)O[C@@H]1C,ELISA,,,IC50,27.5 µg/mL
CCCCCCC[C@H]1CC2CCC3C(C(=O)OCCCCCCCCCC4N=C(N)N5CCCC5=C4C(=O)OCCCCN=C(N)N)=C(C)NC(=N1)N23,ELISA,,,IC50,31 µM
NS(=O)(=O)c1ccc(NC(=O)c2ccccc2SSc2ccccc2C(=O)Nc2ccc(S(N)(=O)=O)cc2)cc1,,,,IC50,>100 µM
NC(=O)[C@H](CCCN=C(N)N)NC(=O)[C@H](CCCN=C(N)N)NC(=O)[C@@H](N)Cc1ccccc1,ELISA,,,IC50,690 µM
O=C(NCCCCC(NS(=O)(=O)c1cnc(N2CCC(CCCC3CCN(S(=O)(=O)c4cc(Br)c(Cl)s4)CC3)CC2)c(Br)c1)C(=O)O)OCc1ccccc1Cl,fluorescence,,,IC50,<1 µM
O=C(O[C@H]1Cc2c(O)cc(O)cc2O[C@@H]1c1cc(O)c(O)c(O)c1)c1cc(O)c(O)c(O)c1,ELISA,,,IC50,>20 µM
O=C(O)[C@H](Cc1ccccc1)NS(=O)(=O)c1ccc(N2CCC(CCCC3CCN(S(=O)(=O)c4cc(Br)c(Cl)s4)CC3)CC2)c(Cl)c1,fluorescence,,,IC50,1–10 µM
CC(=O)Nc1ccc(SSc2ccc(NC(C)=O)cc2C(N)=O)c(C(N)=O)c1,,,,IC50,>100 µM
CC1=C(CCC(=O)O)c2cc3nc(cc4[nH]c(cc5[nH]c(cc1n2)c(C)c5CCC(=O)O)c(CCC(=O)O)c4C)C(CCC(=O)O)=C3C,,,,IC50,>60 µg/mL
C[C@@H](O)[C@H](NC(=O)[C@H](CC(=O)O)NC(=O)[C@H](Cc1c[nH]c2ccccc12)NC(=O)[C@@H]1CCCN1C(=O)[C@H](Cc1c[nH]c2ccccc12)NC(=O)[C@@H](N)CO)C(=O)N[C@@H](Cc1c[nH]c2ccccc12)C(=O)O,ELISA,SF2,,IC50,21 µM
NC(=O)c1ccc(C(NC(=O)c2ccc(C(NC(=O)c3ccc(C(=O)C(=O)O)cc3)(NC(=O)c3ccc(C(=O)C(=O)O)cc3)C(=O)O)cc2)(NC(=O)c2ccc(C(NC(=O)c3ccc(C(=O)C(=O)O)cc3)(NC(=O)c3ccc(C(=O)C(=O)O)cc3)C(=O)O)cc2)C(=O)O)cc1,ELISA,,,IC50,8 µg/mL
Cc1ncc(COP(=O)(O)O)c(C=O)c1O,binding,,,Ki,15 µM
CC(C)[C@H](NC(=O)[C@@H](N)Cc1ccccc1)C(=O)N[C@@H](Cc1ccccc1)C(=O)N[C@@H](CCCN=C(N)N)C(N)=O,ELISA,,,IC50,2630 µM
O=C(O[C@@H]1Cc2c(O)cc(O)cc2O[C@@H]1c1cc(O)c(O)c(O)c1-c1c([C@H]2Oc3cc(O)cc(O)c3C[C@H]2OC(=O)c2cc(O)c(O)c(O)c2)cc(O)c(O)c1O)c1cc(O)c(O)c(O)c1,ELISA,,,IC50,>20 µM
NCCCC[C@H](NC(=O)[C@@H](N)Cc1ccccc1)C(=O)N[C@@H](CCCN=C(N)N)C(N)=O,ELISA,,,IC50,390 µM
C=Cc1c(C)c2cc3nc(cc4[nH]c(cc5nc(cc1[nH]2)C(C)=C5CC)c(C)c4C(=O)O)C(CCC(=O)O)=C3C,,,,IC50,<60 µg/mL

2 of the rows above, restated:

smiles	read by	strain	conditions	endpoint	result
CC(C)[C@H](NC(=O)[C@@H](N)Cc1ccccc1)C(=O)N[C@@H](CCCN=C(N)N)C(N)=O	ELISA			IC50	270 µM
O=C(O[C@@H]1Cc2c(O)cc(O)cc2O[C@@H]1c1cc(O)c(O)c(O)c1)c1cc(O)c(O)c(O)c1	ELISA			IC50	>20 µM

Two numbers with a dash give a range or band. Lines come from different laboratories, so protocols vary. ICn: concentration for n% inhibition.